Legend:
[1] = target: T1, SARS-CoV-2 S ectodomain, Delta (SARS-CoV-2 Delta); assay: ELISA on coated S
T1 construct: extracellular domain

[2] = target: T2, SARS-CoV-2 S ectodomain, Omicron BA.1 (SARS-CoV-2 Omicron BA.1); assay: ELISA on coated S
T2 construct: extracellular domain

[3] = target: T3, SARS-CoV-2 S ectodomain, Omicron BA.4/BA.5 (SARS-CoV-2 Omicron BA.4/BA.5); assay: ELISA on coated S
T3 construct: extracellular domain

SARS-CoV-2 SD1-RBD Beta = target: T4, SARS-CoV-2 SD1-RBD Beta (SARS-CoV-2 Beta); assay: protein ELISA
T4 construct: domain: SD1-RBD

SARS-CoV-2 SD1-RBD Gamma = target: T5, SARS-CoV-2 SD1-RBD Gamma (SARS-CoV-2 Gamma); assay: protein ELISA
T5 construct: domain: SD1-RBD

SARS-CoV-2 SD1-RBD Delta = target: T6, SARS-CoV-2 SD1-RBD Delta (SARS-CoV-2 Delta); assay: protein ELISA
T6 construct: domain: SD1-RBD

[4] = target: T7, SARS-CoV-2 SD1-RBD Omicron BA.2 (SARS-CoV-2 Omicron BA.2); assay: protein ELISA
T7 construct: domain: SD1-RBD

Row | Binder | EC50 [1] [µg/mL] | EC50 [2] [µg/mL] | EC50 [3] [µg/mL] | EC50 (SARS-CoV-2 SD1-RBD Beta) [µg/mL] | EC50 (SARS-CoV-2 SD1-RBD Gamma) [µg/mL] | EC50 (SARS-CoV-2 SD1-RBD Delta) [µg/mL] | EC50 [4] [µg/mL]
1 | fp.002 (antibody, V domains shown) VH: VQLVESGGGVVQPGTSLRLSCAGSGFNFDNYAIHWVRQAPGQGLEWVAIISYEARNKKYAGSVTGRFSISRDNSKSMVYLQMDSLRGEDTAVYYCARDLFLSDYDRSGYDPTRGGFDLWGQGTLVTVSS VL: EIVMTQSPATLSVSPGERATLSCRASQSVSSSLAWYQHKLGQAPRLLIYGASTRATGIPGRFSGSGSGTEFTLTISSLQSEDVAIYYCQQYGDWPLVTFGGGTKVEIK | 0.367 | 0.338 | 0.35 | – | – | – | –
2 | hr2.020 (antibody, V domains shown) VH: EVQLVQSGAEVKKPGESLKISCKGSGYRFASHWIGWVRQMPGKGLQWMGIIYPGDSDTKYSPSFQGQVTISADKSINTVYLHWTSLKASDTAVYYCARRPPHLDGGDSPIRFDHWGQGTLVTVSS VL: QSVLTQPPSASGTPGQRVTISCSGSRSNIGSNDVYWYQQFPGTAPKLLIYRNNQRPSGVPDRFSGSKSGTSASLAISGLRSEDEADYYCATWDDRLTGVFGGGTKLTVV | 0.123 | 0.113 | 0.103 | – | – | – | –
3 | hr2.021 (antibody, V domains shown) VH: QVQLVQSGAEVKKPGASVKVSCKASEAIFSGSYLHWVRQAPGQGLEWMGIITPSGDKTFYAQRFQGRLTMTRDTSTNTLHMHLSGLNSEDTAMYYCARQADKGGWDYWGQGTLVTVSS VL: EIVLTQSPGTLSLSPGERATLSCRASQSVTSNYVAWYQQKPGQAPRLLIYGASTRATGIPDRFSGGGSGTDFTLTITRLEPEDFAVYYCQQYGSSPPTFTFGPGTKVDIK | 0.116 | 0.0912 | 0.0929 | – | – | – | –
4 | hr2.023 (antibody, V domains shown) VH: QVQLVQSGAEVKKPGASVKVSCRASENIFSDSYLHWVRQAPGQGLEWMGIITPSGDKTFYAQQFQGRLTMTRDTPTNTLHMDLRGLTSADTAIYYCARQATKGGWDYWGQGTLVTVSS VL: EIVLTQSPGTLSLSPGESATLSCRASQSVTRNYLAWYQQQPGQAPRLLIYGASNRATGVPDRFSGSGSGTDFTLTISRLEPEDFAVYYCQQYGSSPPTFIFGPGTKVDIK | 0.0464 | 0.036 | 0.0393 | – | – | – | –
5 | hr2.024 (antibody, V domains shown) VH: QVQLVQSGAEVKKPGASVKVSCKASEDIFTDSYLHWVRQAPGQGLEWMGIITPSGDKTFYAQQFQGRLTMTRDPSTNTLYMFLSGLRSDDTAMYFCARQAEKGGWDYWGHGTLVTVSS VL: EIVLTQSPGTLSLSPGQRATLSCRSSQTITSNYLAWYQQRPGQAPRLLIYGASIRATGIPDRFSGSGSGTDFTLTISRLEPEDFAVYYCQQYGSSPPTFIFGPGTKVDIK | 0.08 | 0.0544 | 0.09 | – | – | – | –
6 | hr2.086 (antibody, V domains shown) VH: EVQLLESGGGLVQPGGYLRLSCAASGFTFSSYAMSWVRQAPGKGLEWVSVISGGGGSAYYADSVKGRFTISRDNSKNTLYLQMNSLRAEDTAVYYCAKIGMILVFDYWGQGTLVTVSS VL: EIVLTQSPGTLSLSPGERATLSCRASQSVSNNYLAWYQQKPGQAPRLLISGASSRATGIPDRFSGSGSGTDFTLTISRLEPEDFAVYYCQQYGSSPPTFGQGTKVEIK | 0.0468 | 0.0342 | 0.0343 | – | – | – | –
7 | hr2.090 (antibody, V domains shown) VH: EVQLLESGGGLVQPGGSLRLSCAASGVTFSRYAMSWVRQAPGKGLEWVSTISGGGGGTYYADSVKGRFTISRDNSKNTLYLQMNSLRAEDTAVYYCATLLTVPGPYYFEYWGQGTLVTVSS VL: EIVLTQSPGTLSLSPGERATLSCRASQSVSSSYLAWYQQKPGQAPRLLIYGASSRATGIPDRFSGSGSGTDFTLTISRLESEDFAVYYCQHSRFTFGPGTRVDIK | 0.0445 | 0.0571 | 0.0713 | – | – | – | –
8 | hr2.094 (antibody, V domains shown) VH: EVQLVESGGGLVQPGGSLRLSCAASGFTFSTFWMTWVRQAPGKGLEWVANIKSDGSEKYYVDSVKGRFTISRDNAKNSLYLQMNSLRAEDTAVYYCATWFGLHWGQGTLVTVSS VL: DIVMTQSPDSLAVSLGERASINCKSSQTVLYSSNNKNYLAWYQQKPGQPPKLLIHWASTRDSGVPDRFSGSGSGTDFTLTISSLQAEDVAVYYCQQYHRIPWTFGRGTKVEIK | 0.0732 | 0.0996 | 0.143 | – | – | – | –
9 | fp.003 (antibody, V domains shown) VH: VQLVESGGGVVQPGTSLRLSCTASGFSFSNYAMHWVRQAPGKGLEWVAIISFDTRNKEFADSVKGRFSISRDNSKNSLNLQMNSLRPEDTGVYYCARDLFLSDYDSRGYEPSRGGFDYWGQGTLVTVSS VL: EIVMTQSPATLSVSPGERATLSCRASQSVSSSLAWYQQKLGQPPRLLIYGASTRATGIPARFSGSGSGTEFTLTISSLKSEDSAVYYCQQYNDWPLLSFGGGTKVEIK | 0.265 | 2.08 | 0.605 | – | – | – | –
10 | fp.010 (antibody, V domains shown) VH: EVQLLESGGGLVQPGGSLRLSCAASGFTFSTYAMNWVRQAPGKGLEWVSAISSSGLSTQYADSVRGRFTISRDTSKNTLYLHMNSLRAGDTAVYYCAKVEYSGYDPRGPFDSWGQGTLVTVSS VL: DIQMTQSPSTLSASVGDRVTITCRASQSISGWLAWYQQKPGRAPKLLIYKASSLERGVPSRFSGSGSGTEFTLTISSLQPDDFATYYCQEYSSYPLCTFGQGTKLEIK | 5.04 | – | – | – | – | – | –
11 | rbd.106 (antibody, V domains shown) VH: EVQLVQSGAEVKKPGESLKISCKGSGYSFYNHWIAWVRQMPGKGLEWMGIIYPYDSDTRYSPSFQGQVTISADKSITTAYLQWSSLKASDTAIYYCARRSDYGEFGGHSDYWGQGTLVTVSS VL: QSVLTQPPSASGTPGQRVSISCSGSSSNIGSNSVNWYQQFPGTAPKLLMFSSYQRPSGVPDRFSGSKSGTSASLAISGLQSEDEADYYCAAWDDSLNGVVFGGGTKLTVL | – | – | – | 0.0258 | 0.0213 | 0.031 | 0.0236
12 | rbd.110 (antibody, V domains shown) VH: EVQLVESGGGVVQPGRSLRLSCVASGFTFSRYGMHWVRQAPGKGLEWVATILYDGSDQYYAESVKGRFTISRDNSKNTLYLQMNSLREADTAVYYCAKTSYGYAYNFRLYFDYWGQGTLVTVSS VL: SYELTQPPSVSVAPGKTATITCGGNNIGSAGVHWYQQRPGQAPVLVVYDDSDRPSGIPERFSGSTSGNTATLTISRVEAGDEADYYCQVWDSNSAPVIFGGGTKLTVL | – | – | – | 0.0223 | 0.0175 | 0.0269 | 0.0193
13 | rbd.112 (antibody, V domains shown) VH: EVQLVQSGAEVKKSGESLKISCKSSGYSFTTYWIAWVRQMPGKGLEWMGIIYPGHSDARYSPSFQGHVTISADKSISTAYLQWRSLKASDTAIYYCARLSYYDVSNFYYYDSYWFDSWGLGTLVTVSS VL: QSVLTQPPSVSGAPGQRVTISCTGSSSNLGAGYDVHWYQQLPGTAPKLLIYANSNRPSGVPDRFSGSKSGTSASLAMTGLQAEDEADYYCQSYDSSLGGYVFGFGTKVTVL | – | – | – | 0.0258 | 0.0221 | 0.0364 | 0.0301
14 | rbd.113 (antibody, V domains shown) VH: EVQLVQSGAAVKKPGESLKISCKGSGYSFTNYWIGWVRQMPGKGLELMGIIYVGDSDTRYSPSFQGQVTISADKSITTAYLQWSSLKASDSAIYYCARQRCGGDCPFDLWGRGTLVTVSS VL: DIQMTQSPSTLSASVGDRVTITCRASQSINRWLAWYQQKPGKAPELLIYDASDLESGVPSRFSGSGSGTEFTLTISSLQPDDFATYYCQQYNSYWTFGQGTKVEIK | – | – | – | 0.0217 | 0.0183 | 0.0279 | 0.0198
15 | rbd.117 (antibody, V domains shown) VH: EVQLVESGGGLVQPGGSLRLSCAASGFTFSRYAMSWVRQAPGKGLEWVSGLSGSGDSTYYADSVKGRFTISRDNSKKTLNLQMNSLRPEDTAVYYCAKGSRFGIDYFDCWGQGTLVTVSS VL: DIQMTQSPSTLSASVGDRVTITCRASQSISSWLAWYQLKPGKAPKLLIYDASSLESGVPSRFSGSGSGTEFTLTISSLQPDDFATYYCQQYNTYPFSFGPGTKVDIK | – | – | – | 0.0256 | 0.0252 | 0.0407 | 0.0272
16 | rbd.123 (antibody, V domains shown) VH: QVQLVQSGAEVKKPGSSVKVSCKASGGAFRMYAISWVRQAPGQGLEWMGGIIPISGTATYTQNFQGRVTITVDRSTSTAYMELSSLRSDDTALYYCARGPRTGYDYFDFWGQGTLVTVSS VL: DIQMTQSPSTLSASVGDRVTITCRASQSISSWLAWYQQKPGKAPNLLIYDASSLESGVPSRFSGSGSGTEFTLTISSLQPDDFATYYCQQYKSYPYTFGQGTKLEIK | – | – | – | 0.0094 | 0.00852 | 0.0106 | 0.00877
17 | rbd.141 (antibody, V domains shown) VH: EVQLVESGGGVVQPGRSLRLSCAASGFTFSSYGMHWVRQAPGKGLEWVAVISYDGKIKYYADSVEGRFTISRDNSKNALYLQMNSLRAEDTAVYYCAKYGIVTSFGVVPPYDMDVWGQGTTVTVSS VL: DVVMTQSPLSLPVTLGQPASISCRSSQSLVYSDGNTFLNWFQQRPGQSPRRLIYKVSDRDSGVPDRFSGSGSGTDFTLKISRVEAEDVGVYYCMQGTNWPPTFGQGTKVEIK | – | – | – | 0.0171 | 0.0116 | 0.0163 | 0.0169
18 | rbd.143 (antibody, V domains shown) VH: EVQLVESGGGLVQPGGSLRLSCSASGFTFRRYAMHWVRQAPGKGLQHVSAISSDGDNTHYADSVKGRFTISRDNFKNTLHLQMSSLRPEDTAVYYCVKDPFSNFHYFDCWGQGILVTVSS VL: not shown | – | – | – | 0.0228 | 0.0196 | 0.0291 | 0.0249

— patent publication US20250382354A1 (INSTITUTE FOR RESEARCH IN BIOMEDICINE IRB, published 2025)
